# PSTVd loop 6 mutant pool in Nicotiana benthamiana

The measurements come from Wu et al. 2024 (doi:10.1371/journal.ppat.1012142).

The pool varies loop 6 of the PSTVd intermediate strain in the pattern UNNNCGNNNG; wild type is UGACCGCGAG (upper and lower strand joined, each 5' to 3', the first 5 letters being the upper strand, closing pairs included).

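Three N. benthamiana plants were inoculated with the whole mutant pool. Progeny were sequenced from the inoculated region (day 5), the margin of the inoculated leaf (day 10) and systemic leaves (day 12).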

Numbers give reads per thousand; 0 = not seen among the reads, higher = more abundant. Each site shows the three plants. "Pool" is the share in the plasmid pool used as inoculum, on the same scale. The inoculated region was read from the minus strand, the other sites from the plus strand. IR is the inoculated region, LM the leaf margin, Sys the systemic leaves. Wild type was 20.7 per thousand in the pool and the most common sequence in every sample (inoculated region 195, 198, 203; leaf margin 629, 591, 734; systemic leaves 942, 870, 868).

sequence,pool,IR,LM,Sys
UUAGCGUACG,0.248,0.0695 / 0.0359 / 0.0922,0 / 0 / 0,0 / 0 / 0
UUAGCGUAGG,0.314,0.0521 / 0 / 0.129,0.0276 / 0 / 0,0 / 0 / 0
UUAGCGUAUG,0.431,0.0695 / 0.0359 / 0.0738,0.497 / 0.0252 / 0,0 / 0 / 0.0205
UUAGCGUCAG,0.261,0.608 / 0.503 / 0.406,0.110 / 0.101 / 0.0696,0 / 0 / 0
UUAGCGUCCG,0.288,0.0869 / 0.0719 / 0.0922,0 / 0 / 0,0 / 0 / 0
UUAGCGUCGG,0.261,0.104 / 0.0719 / 0.111,0 / 0 / 0,0 / 0 / 0.0205
UUAGCGUCUG,0.288,0.122 / 0.0719 / 0.0184,0 / 0 / 0,0 / 0 / 0
UUAGCGUGAG,0.196,0.608 / 0.575 / 0.369,0.110 / 0.151 / 0.0232,0 / 0 / 0
UUAGCGUGCG,0.118,0.0695 / 0.0359 / 0.0369,0.0276 / 0 / 0,0 / 0 / 0
UUAGCGUGGG,0.0915,0.0869 / 0.108 / 0.0369,0.0276 / 0 / 0,0 / 0 / 0
UUAGCGUGUG,0.261,0.122 / 0.126 / 0.166,0 / 0 / 0,0 / 0 / 0
UUAGCGUUAG,0.445,0.156 / 0.0539 / 0.0738,0 / 0 / 0,0 / 0.0202 / 0.0615
UUAGCGUUCG,0.235,0.0869 / 0.126 / 0.0553,0.0552 / 0 / 0,0 / 0 / 0
UUAGCGUUGG,0.340,0.0521 / 0.0719 / 0.0553,0 / 0 / 0.0464,0 / 0 / 0
UUAGCGUUUG,0.497,0.122 / 0.0898 / 0.0738,0.0276 / 0 / 0.0232,0 / 0 / 0.0205
UUAGCUACCC,0.0131,0 / 0 / 0,0 / 0 / 0,0 / 0 / 0
UUAGCUCGAG,0.0131,0 / 0 / 0.0184,0 / 0 / 0,0 / 0 / 0
UUAGCUGUCC,0.0131,0 / 0 / 0,0 / 0 / 0,0 / 0 / 0
UUAUCGAAAG,0.222,0.0869 / 0.0719 / 0.0369,0 / 0 / 0.0464,0 / 0 / 0
UUAUCGAACG,0.275,0.643 / 0.772 / 0.387,0.0276 / 0 / 0,0 / 0 / 0
UUAUCGAAGG,0.196,0.122 / 0.0180 / 0.129,0.0276 / 0 / 0,0 / 0 / 0
UUAUCGAAUG,0.418,0.0695 / 0.108 / 0.0369,0 / 0 / 0,0 / 0 / 0.0205
UUAUCGACAG,0.366,0.0869 / 0.144 / 0,0.0276 / 0 / 0,0 / 0 / 0
UUAUCGACCG,0.314,0.0695 / 0.108 / 0.0738,0 / 0 / 0,0 / 0 / 0
UUAUCGACGG,0.248,0.104 / 0.0180 / 0.129,0.0276 / 0 / 0.0232,0 / 0 / 0
UUAUCGACUG,0.379,0.156 / 0.0898 / 0.129,0 / 0 / 0,0 / 0 / 0
UUAUCGAGAG,0.288,0.938 / 0.539 / 0.479,0.0828 / 0.177 / 0.0928,0 / 0 / 0
UUAUCGAGCG,0.261,0.0869 / 0.198 / 0.111,0 / 0 / 0.0232,0 / 0.0202 / 0
UUAUCGAGGG,0.235,0.0521 / 0.0898 / 0.0553,0 / 0 / 0,0 / 0 / 0.0205
UUAUCGAGUG,0.288,0.0695 / 0.0359 / 0.0738,0 / 0 / 0,0 / 0 / 0
UUAUCGAUAG,0.340,0.139 / 0.0719 / 0.0922,0.0276 / 0 / 0.209,0 / 0 / 0
UUAUCGAUCG,0.379,0.122 / 0.0898 / 0.0553,0 / 0 / 0,0 / 0 / 0
UUAUCGAUGG,0.288,0.0869 / 0.162 / 0.111,0 / 0 / 0,0 / 0.0202 / 0
UUAUCGAUUG,0.366,0.104 / 0.0719 / 0.0553,0 / 0 / 0,0 / 0 / 0
UUAUCGCAAG,0.105,0.174 / 0.144 / 0.277,0 / 0 / 0.0232,0 / 0 / 0
UUAUCGCACG,0.288,0.0521 / 0.0719 / 0.166,0 / 0.202 / 0,0 / 0 / 0.0410
UUAUCGCAGG,0.170,0.0521 / 0.0359 / 0.0738,0 / 0 / 0,0 / 0 / 0
UUAUCGCAUG,0.157,0.0869 / 0.108 / 0.0553,0 / 0 / 0,0 / 0 / 0
UUAUCGCCAG,0.275,0.0695 / 0.162 / 0.129,0 / 0 / 0,0 / 0 / 0
UUAUCGCCCG,0.288,0.0869 / 0.144 / 0.0922,0.0276 / 0 / 0,0 / 0 / 0
UUAUCGCCGG,0.235,0.122 / 0.108 / 0.0369,0.0276 / 0 / 0,0 / 0 / 0
UUAUCGCCUG,0.301,0.0521 / 0.0539 / 0.0184,0 / 0.0252 / 0,0 / 0 / 0
UUAUCGCGAG,0.196,0.400 / 0.216 / 0.240,0.166 / 0.429 / 0.0232,0 / 0.0404 / 0.267
UUAUCGCGCG,0.261,0.104 / 0.0539 / 0.166,0 / 0 / 0,0 / 0 / 0
UUAUCGCGGG,0.235,0.174 / 0.108 / 0.0738,0.0552 / 0 / 0,0 / 0 / 0
UUAUCGCGUG,0.235,0.226 / 0.0898 / 0.0553,0.0276 / 0 / 0,0 / 0 / 0
UUAUCGCUAG,0.144,0.122 / 0.144 / 0.0922,0 / 0 / 0.0232,0 / 0 / 0
UUAUCGCUCG,0.405,0.0869 / 0.108 / 0.0184,0 / 0 / 0,0 / 0 / 0
UUAUCGCUGG,0.209,0.0869 / 0.0898 / 0.111,0 / 0 / 0,0 / 0 / 0
UUAUCGCUUG,0.222,0.0348 / 0.162 / 0.0184,0 / 0 / 0,0 / 0 / 0
UUAUCGGAAG,0.144,0.730 / 0.647 / 0.535,0.138 / 0.0757 / 0.0696,0 / 0 / 0
UUAUCGGACG,0.275,0.730 / 0.557 / 0.645,0.0828 / 0 / 0.116,0 / 0.0202 / 0
UUAUCGGAGG,0.222,0.0521 / 0.0719 / 0.0922,0 / 0 / 0.0232,0 / 0 / 0
UUAUCGGAUG,0.327,0.209 / 0.126 / 0.0553,0.0276 / 0 / 0,0 / 0 / 0
UUAUCGGCAG,0.288,0.695 / 0.521 / 0.572,0.0828 / 0.126 / 0.139,0 / 0 / 0
UUAUCGGCCG,0.196,0.695 / 0.880 / 0.535,0.0828 / 0.126 / 0.0696,0 / 0 / 0
UUAUCGGCGG,0.366,0.0869 / 0.0719 / 0.0738,0 / 0 / 0.0232,0 / 0 / 0
UUAUCGGCUG,0.392,0.104 / 0.180 / 0.0738,0 / 0 / 0.0232,0 / 0 / 0
UUAUCGGGAG,0.209,0.712 / 0.844 / 1.05,0.221 / 0.126 / 0.325,0 / 0.141 / 0.103
UUAUCGGGCG,0.275,0.712 / 0.575 / 0.535,0.110 / 0.151 / 0.0928,0 / 0 / 0
UUAUCGGGGG,0.118,0.0695 / 0.0359 / 0.129,0 / 0 / 0,0 / 0 / 0
UUAUCGGGUG,0.288,0.0695 / 0.0898 / 0.0738,0.0276 / 0 / 0.0232,0 / 0.0202 / 0
UUAUCGGUAG,0.275,0.660 / 0.790 / 0.406,0.0828 / 0.0252 / 0.0696,0 / 0 / 0
UUAUCGGUCG,0.222,0.747 / 0.593 / 0.350,0.0828 / 0.0252 / 0.116,0.0180 / 0.0606 / 0

Excerpt, the final 4 entries:

* UUAUCGGGGG (pool 0.118) = IR 0.0695 / 0.0359 / 0.129; LM 0 / 0 / 0; Sys 0 / 0 / 0
* UUAUCGGGUG (pool 0.288) = IR 0.0695 / 0.0898 / 0.0738; LM 0.0276 / 0 / 0.0232; Sys 0 / 0.0202 / 0
* UUAUCGGUAG (pool 0.275) = IR 0.660 / 0.790 / 0.406; LM 0.0828 / 0.0252 / 0.0696; Sys 0 / 0 / 0
* UUAUCGGUCG (pool 0.222) = IR 0.747 / 0.593 / 0.350; LM 0.0828 / 0.0252 / 0.116; Sys 0.0180 / 0.0606 / 0

Sequences that differ at fixed positions probably stem from PCR or sequencing errors, and defective variants can be carried along by functional ones. With 36,220-57,551 reads a sample, very low values are single reads.